Zika virus NS2B-NS3: effect of single substitutions on growth in cell culture

Chain scanned (Zika virus MR766; NS2B from position 2 to 131, then the start of NS3):
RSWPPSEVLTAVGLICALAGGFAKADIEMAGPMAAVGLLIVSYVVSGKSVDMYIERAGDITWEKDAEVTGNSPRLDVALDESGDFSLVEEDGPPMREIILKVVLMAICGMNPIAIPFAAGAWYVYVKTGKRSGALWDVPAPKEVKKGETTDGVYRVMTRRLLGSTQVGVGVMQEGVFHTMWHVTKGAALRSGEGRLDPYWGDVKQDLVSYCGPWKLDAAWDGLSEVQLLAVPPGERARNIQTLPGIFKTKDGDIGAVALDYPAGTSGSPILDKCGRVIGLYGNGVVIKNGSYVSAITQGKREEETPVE

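Mutant virus pools were grown in human Huh-7.5 cells. Deep sequencing gave the change in frequency of each mutant relative to wild type, averaged over three replicate libraries (two for positions 207-308). The study looked for pockets that tolerate few changes, as a guide for inhibitor design.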

Scale: log2 effect, wild type = 0; the lower, the more harmful to the virus. Substitutions are written as wild-type residue, site number, new residue. All changes here are to cysteine. Six mutants with high scores were retested singly and none clearly outgrew wild type, so positive values are not proof of better growth. Position 1 still belongs to NS2A. In the paper, -1 or higher counts as tolerated. Positions 1-103, 104-206 and 207-308 were made and measured as separate libraries.

W220C gave -6.78.
D221C gave -5.24.
G222C gave -3.69.
L223C gave 0.55.
S224C gave -6.14.
E225C gave -3.38.
V226C gave -5.41.
Q227C gave -5.05.
L228C gave -4.88.
L229C gave -3.20.
A230C gave -1.72.
V231C gave -0.83.
P232C gave 0.01.
P233C gave -5.40.
G234C gave -2.81.
E235C gave -2.49.
R236C gave 2.10.
A237C gave 0.87.
R238C gave 1.55.
N239C gave -2.33.
I240C gave -1.26.
Q241C gave -4.63.
T242C gave -5.22.
L243C gave -1.15.
P244C gave -4.24.
G245C gave -5.47.
I246C gave 0.16.
F247C gave -6.13.
K248C gave 0.21.
T249C gave -0.53.
K250C gave -1.77.
D251C gave -3.39.
G252C gave -1.28.
D253C gave -2.48.
I254C gave -5.94.
G255C gave -6.54.
A256C gave 1.82.
V257C gave -4.82.
A258C gave -5.31.
L259C gave -4.91.
D260C gave -4.90.
Y261C gave 1.61.
P262C gave -3.79.
A263C gave 1.10.
G264C gave -4.70.
T265C gave -3.33.
S266C gave -5.27.
G267C gave -5.92.
S268C gave -5.19.
P269C gave -4.73.

The first 5 entries again:

change	log2 effect
W220C	-6.78
D221C	-5.24
G222C	-3.69
L223C	0.55
S224C	-6.14

Values reported by Ni et al. 2025 (doi:10.1038/s41467-025-63602-z).